From patent US20240132619A1

What was measured:
[1] = target: mouse serum albumin (MSA) (mouse) (UniProt P07724); assay: ELISA, MSA coated on plate, n = 3
[2] = target: human serum albumin (HSA) (human) (UniProt P02768); assay: ELISA, HSA coated on plate, n = 3

SS1-ABD-dsFv-LRGGS-PE24 (LMB-164)
Affinity [1]: 0.1 nM
Affinity [2]: 0.08 nM
